Anti-infective test results gathered from many reports (values: NIAID ChemDB through PubChem).

Common to all: tests in culture; species: Cytomegalovirus; measure: EC50

a–b is a range or a potency band.

SMILES	cells	strain	method	value
O=C(CCCCCCC(=O)Nc1cc(S(=O)(=O)O)cc2cc(S(=O)(=O)O)cc(O)c12)Nc1cc(S(=O)(=O)O)cc2cc(S(=O)(=O)O)cc(O)c12	MRC-5	Isolate T-156	plaque count	16 µM
CCCCCc1ccc(-c2cc3cn([C@H]4C[C@H](O)[C@@H](CCl)O4)c(=O)nc3o2)cc1	HEL	-	-	>5 µM
O=[N+]([O-])c1ccc(O)c(CSc2cccc[n+]2[O-])c1	HEL	-	cytopathic effect	>50 µg/mL
CCCCCCCCCCCCCCCCOCCCOP(=O)(O)CO[C@H](CO)Cn1ccc(N)nc1=O	-	GDGP53	-	0.02 µM
Nc1nc2c(ncn2COC(CO)CO)c(=O)[nH]1	MRC-5	AD169	-	11.8 µM
CN1c2ccc(Cl)cc2C(C)(C)C12C=Cc1c(ccc3ccccc13)O2	HEL	DAVIS	plaque count	>44.2 µM
Nc1nc2c(ncn2[C@@H]2C[C@H](CO)[C@H]2CO)c(=O)[nH]1	-	-	-	1–10 µM
COc1ccc2c(c1)C=CC1(O2)N(C)c2ccccc2C1(C)C	HEL	AD169	plaque count	>10.4 µM
Cc1nc(N2CCC[C@H]2COC(C)C)nc(-n2ccnc2)c1[N+](=O)[O-]	-	-	-	0.13 µM
Cc1ccc(C)c(CSc2c(O)ccc[n+]2[O-])c1	HEL	-	cytopathic effect	>5 µg/mL
CCCCCc1ccc(-c2cc3cn([C@H]4C[C@H](Cl)[C@@H](CO)O4)c(=O)nc3o2)cc1	HEL	-	-	>5 µM
CN1c2ccc(Cl)cc2C(C)(C)C12C=Cc1cc([N+](=O)[O-])ccc1O2	HEL	AD169	plaque count	>1.8 µM
Cc1ccc(C)c(C(Cl)S(=O)(=O)c2c(C)ccc[n+]2[O-])c1	HEL	-	cytopathic effect	>50 µg/mL
COc1ccc2c(c1)OC1(C=C2)N(C)c2ccccc2C1(C)C	HEL	DAVIS	plaque count	>10.4 µM
CC(C)CS[C@@H]1C[C@H](n2cnc3c(N)ncnc32)[C@@H](O)[C@H]1O	HEL	DAVIS	cytopathic effect	>200 µg/mL
COC(=O)C(c1cc(C)ccc1C)S(=O)(=O)c1cccc[n+]1[O-]	HEL	-	cytopathic effect	>5 µg/mL
O=C1OC(C(O)Cn2cc(F)c(=O)[nH]c2=O)C(OCc2ccccc2)=C1OCc1ccccc1	HEL	-	-	>50 µg/mL
Cc1ccc(C(=O)Nc2ccc(S(=O)(=O)O)c3cc(S(=O)(=O)O)cc(S(=O)(=O)O)c23)cc1NC(=O)c1cccc(NC(=O)Nc2cccc(C(=O)Nc3cc(C(=O)Nc4ccc(S(=O)(=O)O)c5cc(S(=O)(=O)O)cc(S(=O)(=O)O)c45)ccc3C)c2)c1	MRC-5	Isolate T-1095	plaque count	25 µM
Cc1cn([C@H]2C[C@H](O[Si](C)(C)C(C)(C)C)[C@@H](/C=C/C#N)O2)c(=O)[nH]c1=O	HeLa	AD169	-	10–20 µM
Nc1nc2c(ncn2COC(CO)CO)c(=O)[nH]1	-	-	-	1–10 µM
COc1ccc(OC)c(CS(=O)c2cccc[n+]2[O-])c1	HEL	-	cytopathic effect	>50 µg/mL
O=C1OC(C(O)Cn2cc(C(F)(F)F)c(=O)[nH]c2=O)C(OCc2ccccc2)=C1OCc1ccccc1	HEL	-	-	>50 µg/mL
Nc1ncc2c(ncn2COC(CO)CO)n1	-	-	-	0.1–1 µM
O=C(CCCCCCCCC(=O)Nc1cc(S(=O)(=O)O)cc2cc(S(=O)(=O)O)cc(O)c12)Nc1cc(S(=O)(=O)O)cc2cc(S(=O)(=O)O)cc(O)c12	MRC-5	Isolate T-1082	plaque count	18 µM
COc1ccc(CS(=O)(=O)c2cccc[n+]2[O-])cc1OC	HEL	-	cytopathic effect	>50 µg/mL
CN1c2ccc(Cl)cc2C(C)(C)C12C=Nc1c(ccc3ccccc13)O2	HEL	DAVIS	plaque count	>44 µM
Cc1cccc(CS(=O)c2cccc[n+]2[O-])c1	HEL	-	cytopathic effect	>20 µg/mL
O=C1O/C(=C\Cn2ccc(=O)[nH]c2=O)C(O)=C1O	HEL	-	-	>50 µg/mL
O=S(=O)(Cc1ccccc1Oc1ccccc1)c1cccc[n+]1[O-]	HEL	-	cytopathic effect	>5 µg/mL
Cc1nc(N[C@H]2CCOC[C@@H]2C)nc(-n2ccnc2)c1[N+](=O)[O-]	-	-	-	0.15 µM
N#C/C(=C/c1ccc(Cl)cc1Cl)Sc1cccc[n+]1[O-]	HEL	-	cytopathic effect	1.2 µg/mL
O=C(CCCCCCCCCCC(=O)Nc1cc(S(=O)(=O)O)cc2cc(S(=O)(=O)O)cc(O)c12)Nc1cc(S(=O)(=O)O)cc2cc(S(=O)(=O)O)cc(O)c12	MRC-5	AD169	plaque count	>100 µM
COc1ccc(C)cc1CSc1cccc[n+]1[O-]	HEL	-	cytopathic effect	>50 µg/mL
CC1(C)c2ccccc2N(c2ccccc2)C12C=Nc1c(ccc3ccccc13)O2	HEL	AD169	plaque count	>204.8 µM
O=S(=O)(Cc1ccccc1)c1ccccn1	HEL	-	cytopathic effect	>50 µg/mL
O=c1[nH]c(=O)n([C@H]2C[C@H](O)[C@@H](CCl)O2)cc1I	HEL	-	-	>5 µM
CCOc1cccnc1SCc1ccccc1	HEL	-	cytopathic effect	>50 µg/mL
NC1=NC2C(C=CN2CC(CO)CCO)C(=O)N1	-	-	-	10–100 µM

The first 5 rows once more:

SMILES	cells	strain	method	value
O=C(CCCCCCC(=O)Nc1cc(S(=O)(=O)O)cc2cc(S(=O)(=O)O)cc(O)c12)Nc1cc(S(=O)(=O)O)cc2cc(S(=O)(=O)O)cc(O)c12	MRC-5	Isolate T-156	plaque count	16 µM
CCCCCc1ccc(-c2cc3cn([C@H]4C[C@H](O)[C@@H](CCl)O4)c(=O)nc3o2)cc1	HEL	-	-	>5 µM
O=[N+]([O-])c1ccc(O)c(CSc2cccc[n+]2[O-])c1	HEL	-	cytopathic effect	>50 µg/mL
CCCCCCCCCCCCCCCCOCCCOP(=O)(O)CO[C@H](CO)Cn1ccc(N)nc1=O	-	GDGP53	-	0.02 µM
Nc1nc2c(ncn2COC(CO)CO)c(=O)[nH]1	MRC-5	AD169	-	11.8 µM

ECn: concentration that inhibits the pathogen or its effect by n%. Neighbouring rows are from separate reports. An empty or dashed field is not shown.